The data set has as its system SARS-CoV-2. Nature of the data set: Viral RNA reduction assay (ddPCR) in Vero E6 cells, MOI 0.01. The settings on record: calculated from RNA reduction EC50 values.

As for “teicoplanin [Compound 3, reference compound]”, the “Therapeutic Index CC50/EC50” value was greater than 17.9.

The values are drawn from paper PMC8619593 (Pharmaceuticals, 2021).
